{
  "source": "patent US20090104214A1",
  "about": "(priority 2004, published 2009)",
  "biological_target": "T1, P13423 (Bacillus anthracis), P13423",
  "T1 chain": "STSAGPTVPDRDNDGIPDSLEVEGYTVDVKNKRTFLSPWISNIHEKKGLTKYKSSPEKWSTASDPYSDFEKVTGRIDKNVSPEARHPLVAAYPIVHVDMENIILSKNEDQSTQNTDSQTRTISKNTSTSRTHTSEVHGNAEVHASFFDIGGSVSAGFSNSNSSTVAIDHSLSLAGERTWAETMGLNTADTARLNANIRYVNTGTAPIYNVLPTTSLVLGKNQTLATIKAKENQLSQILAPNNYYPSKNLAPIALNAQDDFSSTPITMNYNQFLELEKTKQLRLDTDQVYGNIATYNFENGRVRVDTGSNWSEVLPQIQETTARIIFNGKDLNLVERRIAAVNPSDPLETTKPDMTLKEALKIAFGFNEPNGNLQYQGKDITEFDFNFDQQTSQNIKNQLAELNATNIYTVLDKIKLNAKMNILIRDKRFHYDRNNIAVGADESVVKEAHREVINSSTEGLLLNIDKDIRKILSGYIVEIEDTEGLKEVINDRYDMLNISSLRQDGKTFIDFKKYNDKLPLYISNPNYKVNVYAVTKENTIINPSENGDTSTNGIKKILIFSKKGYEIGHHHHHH",
  "experiment": "ELISA inhibition of PA63-LF binding",
  "conditions": "chains peptide; modification not given",
  "data": [
    {"binder": "NVMTYWWLDPPL", "note": "[MAP3, tetra-branched Multiple Antigen Peptide of …]", "values": [
      {"measurement": "IC50", "result": 0.4, "unit": "µM"}
    ]},
    {"binder": "TLPYWWLTPSNP", "note": "[MAP2, tetra-branched Multiple Antigen Peptide of …]", "values": [
      {"measurement": "IC50", "result": 6.5, "unit": "µM"}
    ]}
  ]
}
